These results are taken from paper PMC8938504 (Nature Communications, 2022).

For this test, the target named is 6×His-tagged AVR-PikD (Magnaporthe oryzae, UniProt C4B8B8 22-113). The following applies: both partners purified.

B1: MBP:Pikp-1_HMA (Pikp-1 HMA domain fused to the maltose-binding protein) (domain or fragment)
chain: GLKQKIVIKVAMEGNNCRSKAMALVASTGGVDSVALVGDLRDKIEVVGYGIDPIKLISALRKKVGDAELLQVSQANKD
For B1, the binding result is “binds”.
